Test system: human erythrocytes
Experiment: Haemolysis assay
Format: cell-based
Settings: MIC against S. aureus 25923
Procedure: 1 mL of mammalian blood, collected from a healthy donor, was mixed with 9 mL of PBS and centrifuged at 1,000 rpm for 5 min. Red blood cell pellet was collected and subsequently washed with PBS three times and diluted to a final concentration of 5% v/v. The various COEs were dissolved in PBS and two folds serial diluted in a 96-well microplate. 50 μL of red blood cell stock was mixed with 50 μL of COE solution in each well and incubated for 1 hr at 37° C. under shaking. The microplate was centrifuged at 1,000 rpm for 10 min. 80 μL aliquots of the supernatant were then transferred to a new 96-well microplate and diluted with another 80 μL of PBS. Haemolytic activity was calculated by measuring absorbance at 540 nm using a 96-well plate spectrophotometer. Triton X-100 (0.1% in PBS), which is able to lyse red blood cells, completely was used as positive control, while PBS was used as negative control. The haemolysis percentage was calculated using the following formula:
[formula] where Op is the absorbance of the COE-treated sample, Ob is the absorbance of negative control and Ot is the absorbance of positive control. Results and Discussions
The selectivity of COEs towards bacteria or mammalian cells can be quantified using the ratio between the concentrations leading to 50% lysis of human erythrocytes (HC50) and the MIC value.

C[N+](C)(C)CC[N+](C)(C)CCCCCCOc1ccc(/C=C/c2ccc(/C=C/c3ccc(OCCCCCC[N+](C)(C)CC[N+](C)(C)C)cc3)cc2)cc1 [COE-T62]
HC50/MIC (S. aureus) ratio: >8192
